{
  "source": "patent US20030195350A1",
  "about": "“Individualization of therapy with antiviral agents” (priority 2001, published 2003)",
  "test_system": "1X-Ab",
  "assay": "Effect of the ratio 1U:1X on determination of 1X concentration by ELISA",
  "type": "binding, rabbit",
  "conditions": "for [1X] × 10^6 (M): fixed 1X 3 × 10^−6 M",
  "data": [
    {"smiles": "Cn1c(=O)[nH]c2[nH]c(=O)[nH]c2c1=O", "note": "[1-Methyluric acid]", "values": [
      {"measurement": "[1X] × 10^6 (M)", "setting": "1U:1X ratio 0.50", "result": "2.75 × 10^6 (M)"},
      {"measurement": "[1X] × 10^6 (M)", "setting": "1U:1X ratio 1.00", "result": "3.25 × 10^6 (M)"},
      {"measurement": "[1X] × 10^6 (M)", "setting": "1U:1X ratio 1.50", "result": "3.25 × 10^6 (M)"},
      {"measurement": "[1X] × 10^6 (M)", "setting": "1U:1X ratio 2.00", "result": "3.60 × 10^6 (M)"},
      {"measurement": "apparent increase of 1X concentration", "setting": "1U:1X ratio 2.5", "result": 22, "unit": "%"},
      {"measurement": "[1X] × 10^6 (M)", "setting": "1U:1X ratio 2.50", "result": "3.65 × 10^6 (M)"},
      {"measurement": "apparent increase of 1X concentration", "setting": "1U:1X ratio 3.0", "result": 32, "unit": "%"},
      {"measurement": "[1X] × 10^6 (M)", "setting": "1U:1X ratio 3.00", "result": "3.95 × 10^6 (M)"},
      {"measurement": "[1X] × 10^6 (M)", "setting": "1U:1X ratio 4.00", "result": "4.20 × 10^6 (M)"},
      {"measurement": "[1X] × 10^6 (M)", "setting": "1U:1X ratio 5.00", "result": "4.30 × 10^6 (M)"},
      {"measurement": "[1X] × 10^6 (M)", "setting": "1U:1X ratio 6.00", "result": "4.50 × 10^6 (M)"},
      {"measurement": "[1X] × 10^6 (M)", "setting": "1U:1X ratio 8.00", "result": "4.30 × 10^6 (M)"}
    ]}
  ]
}
